The test system of this series is C. parvum. In words: Parasite persistence (time-kill) assay in HCT-8 cells. The conditions noted are these: highest nontoxic concentration, replicates test. It is filed as cell-based, Cryptosporidium parvum. The procedure: Excysted C. parvum oocysts were added to >90% confluent HCT-8 cells in 384-well plates. […] At ∼24 h (i.e., the time of compound addition) and at various time intervals thereafter, parasites were washed, fixed, permeabilized, stained, and imaged as for the C. parvum growth assay. For the extended-compound-exposure experiments, the medium and compound were replaced every 3 days. A separate 384-well plate was used for each time interval. Parasite numbers were normalized to host cell nucleus numbers and are expressed as the percentage of parasites per host cell nucleus. In order to fit parasite decay curves, the effect of drugs was isolated from expected changes in parasite numbers over time by expressing the number of parasites as the percentage of the number of parasites with the control, dimethyl sulfoxide (DMSO), for each time point. Exponential decay curves were fit using GraphPad Prism software, version 6.01, and curve validity was assessed using the replicates test.

We go through four molecules from article PMC5913971, “A Novel Piperazine-Based Drug Lead for Cryptosporidiosis from the Medicines for Malaria Venture Open-Access Malaria Box” (Antimicrobial Agents and Chemotherapy, 2018).

Some compounds share one wording; it may come from a single statement.

Take `O=C(Nc1ccc(Cl)cc1)N1CCN(c2ccc3nncn3n2)CC1` [MMV665917, Clc1ccc(NC(=O)N2CCN(CC2)c3ccc4nncn4n3)cc1]: the “fit of one-phase exponential decay curve” value was “high-quality curve was readily generated”. `CC(=O)Oc1ccccc1C(=O)Nc1ncc([N+](=O)[O-])s1` [nitazoxanide]: the “fit of one-phase exponential decay curve” value is given as “not possible to fit exponential decay curves”. In the case of `CC(C)/N=c1\cc2n(-c3ccc(Cl)cc3)c3ccccc3nc-2cc1Nc1ccc(Cl)cc1` [clofazimine], the “fit of one-phase exponential decay curve” value is “not possible to fit exponential decay curves”. With `NC[C@@H]1O[C@H](O[C@H]2[C@@H](O)[C@H](O[C@@H]3[C@@H](O)[C@H](N)C[C@H](N)[C@H]3O[C@H]3O[C@H](CO)[C@@H](O)[C@H](O)[C@H]3N)O[C@@H]2CO)[C@H](N)[C@@H](O)[C@@H]1O` [paromomycin], the “fit of one-phase exponential decay curve” value is listed as “not possible to fit exponential decay curves”.
